Test results: article PMC12423841 (ACS Omega, 2025)

Columns and labels:
[1] = biological target: RBDWuhan (SARS-CoV-2 spike RBD, Wuhan-Hu-1 variant) (Severe acute respiratory syndrome coronavirus 2, UniProt P0DTC2); type: binding; conditions: read-out: K D values RBDWuhan
[2] = biological target: RBDBA.1 (SARS-CoV-2 spike RBD, Omicron BA.1 variant) (Severe acute respiratory syndrome coronavirus 2, UniProt P0DTC2, E484A/G339D/G446S/G496S/K417N/N440K/N501Y/Q493R/Q498R/S371L/S373P/S375F/S477N/T478K/Y505H); type: binding; conditions: read-out: K D values RBDBA.1

Substance iofendylate has a Kd [1] greater than 1000 µM and a Kd [2] greater than 1000 µM.
